A mixed list of measured activities; the numbers were collected in NIAID ChemDB.

Common to all: growth or infection tests; species: HIV-1

Rows are shuffled and stem from different studies. Two numbers with a dash give a range or band. Blank or dashed fields: not listed here. ECn is the concentration giving n% inhibition of infection, replication or growth.

SMILES,measure,cell line,strain or isolate,method,mutations,result
O=C1Nc2ccc(Cl)cc2C(C#Cc2ccncc2)(C(F)(F)F)O1,EC90,,,,RT-K103N,0.1446 µM
Cc1ccc(N/N=C/c2ccc3cccc(O)c3n2)c(C)c1,EC50,TZM-bl,UG070,luciferase,,38.78 µM
C/C=C/COC1(C(F)(F)F)OC(=O)Nc2ccc(F)cc21,EC50,,,,,<0.00885 µM
Cc1ncc(-c2ccc(OCCC3COC3)cn2)c(N2CCC(C)(C)CC2)c1[C@H](OC(C)(C)C)C(=O)O,EC50,MT-2,NL4-3,luminescence,,0.0076 µM
C#CCOCn1c(Cc2cc(Cl)cc(Cl)c2)c(CC)c(=O)[nH]c1=O,EC50,MT-4,NNRTI-resistant (RT Y181C) N119,cytopathic effect / MTT,RT-Y181C,12 µM
CCOCn1c(Cc2cc(OC)cc(OC)c2)c(C(C)C)c(=O)[nH]c1=O,EC50,MT-4,IIIB,MTT,Efavirenz-resistant (K103R + V179D + P225H),>100 µM
C=CCOCn1c(Cc2cc(Cl)cc(Cl)c2)c(CC)c(=O)[nH]c1=O,EC50,MT-4,NNRTI-resistant (RT Y181C) N119,cytopathic effect / MTT,RT-Y181C,>10 µM
Cc1ncc(-c2ccc(NCCOc3ccccc3)cn2)c(N2CCC(C)(C)CC2)c1[C@H](OC(C)(C)C)C(=O)O,EC50,MT-2,NL4-3,luminescence,,0.0016 µM
CCc1c(Cc2cc(C)cc(C)c2)n(COCCOc2ccccc2)c(=O)[nH]c1=O,EC50,MT-4,IIIB,MTT,,>0.009 µM
CCc1c(Cc2cc(Cl)cc(Cl)c2)n(COC/C=C/c2ccccc2)c(=O)[nH]c1=O,EC50,MT-4,NNRTI-resistant (RT K103N Y181C) A17,cytopathic effect / MTT,RT-K103N Y181C,>10 µM
CCc1c(Cc2cc(OC)cc(OC)c2)[nH]c(=O)[nH]c1=O,EC50,MT-4,IIIB,MTT,,>100 µM
O=C1Nc2ccc(F)c(F)c2C(C#Cc2ccsc2)(C(F)(F)F)O1,EC90,,,,RT-K103N,0.1559 µM
Cc1ccc(N/N=C/c2ccc3cccc(O)c3n2)cc1,EC50,TZM-bl,UG070,luciferase,,54.6 µM
CN1c2ccccc2C2C1C=C(c1noc(C(F)(F)F)n1)C(=O)N2c1ccc([N+](=O)[O-])cc1,EC50,MT-4,LAI,cytopathic effect / MTT,,<1 µM
O=C1Nc2ccc(Cl)cc2C(C#Cc2cncs2)(C(F)(F)F)O1,EC50,,,,RT-K103N,<0.1062 µM
CCOCn1c(Cc2cc(OC)cc(OC)c2)c(CC)c(=O)[nH]c1=O,EC50,MT-4,A17,MTT,K103N + Y181C,>100 µM
CN(CCN1CCOCC1)C(=O)CN1c2ccccc2C2C1C=C(C#N)C(=O)N2c1ccc([N+](=O)[O-])cc1,EC50,MT-4,LAI,cytopathic effect / MTT,,1–32 µM
CCOCn1c(Cc2ccccc2)c(C(C)C)c(=O)[nH]c1=O,EC50,MT-4,IIIB,MTT,,0.03 µM
Cc1cc(C)cc(N/N=C/c2ccc3cccc(O)c3n2)c1,EC50,TZM-bl,UG070,luciferase,,50.63 µM
CN1c2ccccc2C2C1C=CC(=O)N2c1ccc(-c2nc(-c3ccc(C#N)cc3)cs2)cc1,EC50,MT-4,LAI,cytopathic effect / MTT,,>32 µM
Cc1ncc(-c2ccc(OCc3cccnc3)cn2)c(N2CCC(C)(C)CC2)c1[C@H](OC(C)(C)C)C(=O)O,EC50,MT-2,NL4-3,luminescence,,0.0047 µM
CCO[C@@H]1Cc2cc(C(F)(F)F)ccc2C1N1CCN(C2(C)CCN(C(=O)c3c(C)ncnc3C)CC2)C[C@@H]1C,EC50,PBMC,92/BR/004,p24,,0.001 µM
Cn1c2ccccc2c2c1cc(C#N)c(=O)n2-c1ccc([N+](=O)[O-])cc1,EC50,MT-4,E,cytopathic effect / MTT,RT-F227C,0.06 µM
Cc1c(O)cccc1C(=O)N[C@@H](Cc1ccccc1)C(O)CN1C[C@H]2CCS[C@H]2C[C@H]1C(=O)NC(C)(C)C,EC95,CEM + CEM-SS,HXB2,cytopathic effect / XTT,,1.36 µM
Oc1cccc2ccc(/C=N/Nc3ccc(F)cc3)nc12,EC50,TZM-bl,VB59,luciferase,,25.56 µM
CCCCSc1ccc(-c2cnc(C)c([C@H](OC(C)(C)C)C(=O)O)c2N2CCC(C)(C)CC2)nc1,EC50,MT-2,NL4-3,luminescence,,0.0068 µM
CCOCn1c(Cc2ccccc2)c(C(C)C)c(=O)[nH]c1=O,EC50,MT-4,IIIB,cytopathic effect / MTT,,0.02 µM
Cc1cccc(Cl)c1OCCOc1ncc(-c2cnc(C)c([C@H](OC(C)(C)C)C(=O)O)c2N2CCC(C)(C)CC2)cc1F,EC50,MT-2,NL4-3,luminescence,,0.0022 µM
CCc1c(Cc2cc(OC)cc(OC)c2)n(COCCOc2ccccc2)c(=O)[nH]c1=O,EC50,MT-4,A17,MTT,K103N + Y181C,>41 µM
O=C1C=CC2Nc3ccccc3C2N1c1ccc(-c2nn[nH]n2)cc1,EC50,MT-4,LAI,cytopathic effect / MTT,,>32 µM
CCOCn1c(Cc2ccccc2)c(C(C)C)c(=O)[nH]c1=O,EC50,PBMC,CC3,p24,,0.04 µM
Cc1ccc(OCCN(C)c2ccc(-c3cnc(C)c([C@H](OC(C)(C)C)C(=O)O)c3N3CCC(C)(C)CC3)cn2)cc1,EC50,MT-2,NL4-3,luminescence,,0.0032 µM
CN1c2ccccc2C2C1C=C(C#N)C(=O)N2c1ccc(-c2ccco2)cc1,EC50,MT-4,LAI,cytopathic effect / MTT,,1–32 µM
O=C1Nc2ccc(F)c(F)c2C(C#Cc2cccs2)(C(F)(F)F)O1,EC90,,,,RT-K103N,0.2797 µM
CC(C)c1c(Cc2ccccc2)n(COCCOc2ccccc2)c(=O)[nH]c1=O,EC50,MT-4,IIIB,MTT,,0.06 µM